Measured values from several laboratories, pooled; numbers as filed in NIAID ChemDB.

All rows: growth or infection tests; species: HIV-1; cells: C8166; measure: EC50

ECn is the concentration giving n% inhibition of infection, replication or growth.

structure,strain or isolate,changes,read by,value
CCN1c2ncc(CCOc3ccc(-n4nc(C(=O)O)cc4C)cc3C)cc2C(=O)N(C)c2cccnc21,-,RT-K103N Y181C,p24,>0.05 µM
Nc1ccn([C@@H]2CS[C@H](CO)O2)c(=O)n1,IIIB,-,syncytia / visual reading,0.1758 µM
COC(=O)c1cc2c(c(OC)c1-c1ccc(N(C)C)cc1)OCO2,IIIB,-,p24 / ELISA,0.16 µg/mL
CCCC(=O)OCC1=C[C@H]2[C@@H]3C(C)(C)[C@]3(OC(=O)CCC)[C@H](OC(=O)/C=C/c3ccccc3)[C@@H](C)[C@]2(O)[C@@H]2C=C(C)C(=O)[C@@]2(O)C1,IIIB,-,p24 / ELISA,0.055 µM
CCN1c2ncc(CCOc3cccc4c3ccc[n+]4[O-])cc2C(=O)Nc2c(C)cc(Cl)nc21,IIIB,-,p24,0.00037 µM
Cc1ccccc1-c1c(C(OC(C)C)C(=O)O)c(C)nc2ccc(Cl)cc12,-,-,luciferase / reporter gene,<20 µM
CCCCCCCCC(=O)O[C@@]12[C@H](OC(=O)/C=C/c3ccc(OC)cc3)[C@@H](C)[C@@]3(O)[C@@H](C=C(CO)C[C@]4(O)C(=O)C(C)=C[C@@H]34)[C@@H]1C2(C)C,IIIB,-,syncytia / visual reading,0.0337 µM
CCN1c2ncc(CCOc3ccc(C(=O)O)c4c3CCCC4)cc2C(=O)N(C)c2ccc(C)nc21,-,RT-K103N Y181C,p24,<0.1 µM
CCCC(C(=O)O)c1c(C)nc2ccc(Br)cc2c1-c1ccc(Cl)cc1,-,-,luciferase / reporter gene,<20 µM
O=c1cc(-c2cccc3c2Sc2ccccc2S3)oc(N2CCOCC2)c1,HXB2,-,p24,2.3 µM
CC/C=C\C/C=C\C/C=C\C/C=C\C/C=C\CCCC(=O)O[C@@H]1[C@@H](C)[C@@]2(O)[C@@H](C=C(CO)C[C@]3(O)C(=O)C(C)=C[C@@H]23)[C@@H]2C(C)(C)[C@]12OC(=O)CCC/C=C\C/C=C\C/C=C\C/C=C\C/C=C\CC,IIIB,-,p24 / ELISA,1.28 µM
CCN1c2ncc(CCOc3ccc(CC(=O)O)c4ccccc34)cc2C(=O)N(C)c2cccnc21,WT,-,p24,<0.1 µM
CCN1c2ncc(CCOc3ccc(-c4ccccc4)cc3)cc2C(=O)N(C)c2cccnc21,-,RT-K103N Y181C,p24,>0.05 µM
Cc1nc2ccc(Cl)cc2c(-c2ccc(O)cc2)c1C(OC(C)C)C(=O)O,-,-,luciferase / reporter gene,<20 µM
Cc1cn([C@H]2C[C@H](N=[N+]=[N-])[C@@H](CO)O2)c(=O)[nH]c1=O,-,-,syncytia,0.03177 µM
CCCCCCCCCC(=O)O[C@@]12[C@H](O)[C@@H](C)[C@@]3(O)[C@@H](C=C(CO)C[C@]4(O)C(=O)C(C)=C[C@@H]34)[C@@H]1C2(C)C,IIIB,-,p24 / ELISA,0.5635 µM
Cc1nc2ccc(Cl)cc2c(-c2ccc(Cl)nc2)c1C(OC(C)C)C(=O)O,-,-,luciferase / reporter gene,<20 µM
CCN1c2ncc(CCOc3ccc4cc(C(=O)NN)ccc4c3)cc2C(=O)N(C)c2cccnc21,-,RT-K103N Y181C,p24,0.1–1 µM
CCN1C(=O)NC(=O)C(C(C)C)C1CC1CC(C)CC(C#N)C1=O,RF,V82F/184V,p24 / ELISA,0.01209 µM
Cc1cc(C)cc(S(=O)(=O)c2c(C(N)=O)[nH]c3c(Cl)cc(Cl)cc23)c1,IIIB,RT-Y181C,p24,>100 µM
CCN1c2ncc(CCOc3ccc(C4CC4C(=O)O)c4ccccc34)cc2C(=O)N(C)c2ccc(F)nc21,-,RT-K103N Y181C,p24,0.1–1 µM
Cc1ccc(-c2c(C(OC(C)C)C(=O)O)c(C)nc3ccc(Cl)cc23)cc1,-,-,luciferase / reporter gene,<20 µM
CCN1c2ncc(CCOc3ccc(C(=O)NCC(CC)(CC)C(=O)O)cc3C)cc2C(=O)N(C)c2cccnc21,IIIB,-,p24,<0.01 µM
CCN1c2ncc(CCOc3ccc4cc(CC(=O)O)ccc4c3C)cc2C(=O)N(C)c2cccnc21,WT,-,p24,<0.1 µM
CSc1ccc(-c2c(C(OC(C)C)C(=O)O)c(C)nc3ccc(Cl)cc23)cc1,-,-,luciferase / reporter gene,<20 µM
CCN1c2ncc(CCOc3ccc(NS(C)(=O)=O)c4ccccc34)cc2C(=O)N(C)c2ccc(F)nc21,WT,-,p24,<0.1 µM
Cc1cc(C)cc(S(=O)(=O)c2c(C(=O)NNCCO)[nH]c3ccc(Cl)cc23)c1,IIIB WT,-,p24,<0.006 µM
CCN1c2ncc(CCOc3ccc(C(=O)O)c4c3CCN(C(=O)OC(C)(C)C)C4)cc2C(=O)N(C)c2cccnc21,-,RT-K103N Y181C,p24,<0.1 µM
Cc1nc2ccc(Cl)cc2c(-c2ccc(C(C)C)cc2)c1C(OC(C)C)C(=O)O,-,-,luciferase / reporter gene,<20 µM
CCN1c2ncc(CCOc3ccc(-c4ccc(CC(=O)O)cc4O)cc3C)cc2C(=O)N(C)c2cccnc21,IIIB,-,p24,0.01–0.05 µM
CCN1c2ncc(CCOc3ccc(CCC(=O)O)c4c3CCCC4)cc2C(=O)N(C)c2cccnc21,-,RT-K103N Y181C,p24,<0.1 µM

The last 3 rows once more:

{"structure": "Cc1nc2ccc(Cl)cc2c(-c2ccc(C(C)C)cc2)c1C(OC(C)C)C(=O)O", "read by": "luciferase / reporter gene", "value": "<20 µM"}
{"structure": "CCN1c2ncc(CCOc3ccc(-c4ccc(CC(=O)O)cc4O)cc3C)cc2C(=O)N(C)c2cccnc21", "strain or isolate": "IIIB", "read by": "p24", "value": "0.01–0.05 µM"}
{"structure": "CCN1c2ncc(CCOc3ccc(CCC(=O)O)c4c3CCCC4)cc2C(=O)N(C)c2cccnc21", "changes": "RT-K103N Y181C", "read by": "p24", "value": "<0.1 µM"}

a–b is a range or a potency band. Conditions beyond the fields shown may differ between rows. Blank or dashed fields: not listed here.